We go through 5 molecules from paper PMC11904993, “Humanized Candida and NanoBiT Assays Expedite Discovery of Bdf1 Bromodomain Inhibitors With Antifungal Potential” (Advanced Science, 2025).

Sequences of proteins named here, by UniProt entry; tags and fusion partners are left off. Residues count along the entry.
UniProt Q6FWV7, 100-228 limits assumed: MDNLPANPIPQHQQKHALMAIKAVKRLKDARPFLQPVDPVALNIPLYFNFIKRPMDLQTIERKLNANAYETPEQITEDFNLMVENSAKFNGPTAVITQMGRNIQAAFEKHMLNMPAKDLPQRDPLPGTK
UniProt Q6FWV7, 269-391 limits assumed: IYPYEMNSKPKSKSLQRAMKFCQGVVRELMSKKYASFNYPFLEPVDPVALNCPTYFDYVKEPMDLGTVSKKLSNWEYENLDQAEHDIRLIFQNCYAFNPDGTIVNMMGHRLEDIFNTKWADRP

Read-outs that look alike come from different tables or passages of the source.

Test [1] concerns CgBdf1 BD2. The following applies: for Normalized (0 to 100%), WT, Average / Normalized (0 to 100%), YF mutant, Average: normalized peptide array signal; for Raw data, WT, Left / Raw data, YF mutant, Left: left replicate; for Raw data, WT, Rigt / Raw data, YF mutant, Right: right replicate.
In test [2] the target is CgBdf1 BD2 (Candida glabrata, UniProt Q6FWV7). The note with it: read-out: IC50 CgBdf1 BD2; Table S3; estimate, preliminary single-replicate HTRF assay.
The test system of test [3] is CgBdf1 BD1. The note with it: for Normalized (0 to 100%), WT, Average / Normalized (0 to 100%), YF mutant, Average: normalized peptide array signal; for Raw data, WT, Left / Raw data, YF mutant, Left: left replicate; for Raw data, WT, Rigt / Raw data, YF mutant, Right: right replicate.
Test [4] concerns the target CgBdf1 BD1 (Candida glabrata, UniProt Q6FWV7). Briefly: HTRF assay, inhibition of H4ac4 peptide binding. Details: species or system C. glabrata. The following applies: read-out: IC50 CgBdf1 BD1; Table S3; estimate, preliminary single-replicate HTRF assay.
Where [5] appears, read: CgBdf1 BD2 WT, peptide array signal.
[6] abbreviates: CgBdf1 BD2 YF mutant, peptide array signal.
Setting [7] is: CgBdf1 BD1 WT, peptide array signal.
[8] abbreviates: CgBdf1 BD1 YF mutant, peptide array signal.

Turning to `CC(=O)Nc1ccc(CCc2nc3ccc(C(=O)NCc4ccc5c(c4)OCO5)cc3[nH]2)cc1`, the figures for the “Normalized (0 to 100%), WT, Average” value in the test with CgBdf1 BD2 [1] (CgBdf1 BD2 WT) and in the test with CgBdf1 BD1 [3] (CgBdf1 BD1 WT) were 0.936% and 6.63%, respectively. In addition, the results for the “Raw data, WT, Left” value in the test with CgBdf1 BD2 [1] (setting [5]) and in the test on CgBdf1 BD1 [3] (setting [7]) were 0.004055 and 0.01008, respectively. For the same molecule, the “Raw data, WT, Rigt” value amounted to 0.01466 in the test on CgBdf1 BD2 [1] (setting [5]) and 0.1226 with CgBdf1 BD1 [3] (setting [7]). For the same molecule, the entries for the “Normalized (0 to 100%), YF mutant, Average” value in the test on CgBdf1 BD2 [1] (CgBdf1 BD2 YF mutant) and in the test with CgBdf1 BD1 [3] (CgBdf1 BD1 YF mutant) were 0.706% and 0.509%, respectively. For the same molecule, the “Raw data, YF mutant, Left” value in the test on CgBdf1 BD2 [1] (setting [6]) amounted to 0.004294; in the test on CgBdf1 BD1 [3] (setting [8]), 0.003393. In addition, the “Raw data, YF mutant, Right” value turned out to be 0.009816 in the test with CgBdf1 BD2 [1] (setting [6]) and 0.006786 with CgBdf1 BD1 [3] (setting [8]). The figures for the IC50 on CgBdf1 BD2 [2] and at CgBdf1 BD1 [4] were more than 20 µM and 21 µM, respectively.
Take `CC(=O)c1cccc(NC(=O)Cn2cccc2-c2nc(-c3ccc4c(c3)OCO4)no2)c1`: the “Raw data, WT” value is given as 0.004679 in the test on CgBdf1 BD2 [1] (peptide array signal, CgBdf1 BD2 WT, first replicate column); 0.007486 with CgBdf1 BD2 [1] (peptide array signal, CgBdf1 BD2 WT, second replicate column); 0.01134 in the test on CgBdf1 BD1 [3] (peptide array signal, CgBdf1 BD1 WT, first replicate column); 0.04379 in the test with CgBdf1 BD1 [3] (peptide array signal, CgBdf1 BD1 WT, second replicate column). The “Normalized (0 to 100%), WT” value is on record as 0.608% in the test on CgBdf1 BD2 [1] (peptide array signal, CgBdf1 BD2 WT, mean of the two raw values) and 2.76% in the test on CgBdf1 BD1 [3] (peptide array signal, CgBdf1 BD1 WT, mean of the two raw values). In addition, the “Raw data, YF mutant” value is reported as 0.01043 in the test on CgBdf1 BD2 [1] (peptide array signal, CgBdf1 BD2 YF mutant, first replicate column); 0.003374 in the test with CgBdf1 BD2 [1] (peptide array signal, CgBdf1 BD2 YF mutant, second replicate column); 0.003085 with CgBdf1 BD1 [3] (peptide array signal, CgBdf1 BD1 YF mutant, first replicate column); 0.003085 in the test with CgBdf1 BD1 [3] (peptide array signal, CgBdf1 BD1 YF mutant, second replicate column). The “Normalized (0 to 100%), YF mutant” value in the test with CgBdf1 BD2 [1] (peptide array signal, CgBdf1 BD2 YF mutant, mean of the two raw values) was found to be 0.69%; with CgBdf1 BD1 [3] (peptide array signal, CgBdf1 BD1 YF mutant, mean of the two raw values) it was 0.308%. In addition, the 50% inhibitory concentration (IC50) on CgBdf1 BD2 [2] and at CgBdf1 BD1 [4] was more than 20 µM in each case.
On to `CCC(=O)Nc1ccc(CCc2nc3ccc(C(=O)NCCC4=CCCCC4)cc3[nH]2)cc1`, for which the “Normalized (0 to 100%), WT, Average” value in the test on CgBdf1 BD2 [1] (CgBdf1 BD2 WT) was 0.53%; in the test with CgBdf1 BD1 [3] (CgBdf1 BD1 WT), 7%. Moreover, the “Raw data, WT, Left” value with CgBdf1 BD2 [1] (setting [5]) worked out at 0.004367; in the test with CgBdf1 BD1 [3] (setting [7]) it was 0.04348. In addition, the “Raw data, WT, Rigt” value in the test on CgBdf1 BD2 [1] (setting [5]) is on record as 0.006238; in the test with CgBdf1 BD1 [3] (setting [7]), 0.1014. The “Normalized (0 to 100%), YF mutant, Average” value in the test with CgBdf1 BD2 [1] (CgBdf1 BD2 YF mutant) is 0.752%; in the test on CgBdf1 BD1 [3] (CgBdf1 BD1 YF mutant) it was 0.308%. The “Raw data, YF mutant, Left” value turned out to be 0.01135 in the test on CgBdf1 BD2 [1] (setting [6]) and 0.004318 in the test with CgBdf1 BD1 [3] (setting [8]). The “Raw data, YF mutant, Right” value in the test with CgBdf1 BD2 [1] (setting [6]) was 0.003681; in the test on CgBdf1 BD1 [3] (setting [8]), 0.001851. For the same molecule, the IC50 on CgBdf1 BD2 [2] and on CgBdf1 BD1 [4] was more than 20 µM throughout.
Take `COc1ccc(-c2nc3cnccn3c2Nc2ccc(Br)cc2)cc1OC`: the “Normalized (0 to 100%), WT, Average” value with CgBdf1 BD2 [1] (CgBdf1 BD2 WT) came out at 1%; in the test with CgBdf1 BD1 [3] (CgBdf1 BD1 WT), 1.15%. Also, the results for the “Raw data, WT, Left” value in the test on CgBdf1 BD2 [1] (setting [5]) and with CgBdf1 BD1 [3] (setting [7]) were 0.01154 and 0.01292, respectively. Moreover, the “Raw data, WT, Rigt” value in the test on CgBdf1 BD2 [1] (setting [5]) stood at 0.009357; in the test with CgBdf1 BD1 [3] (setting [7]), 0.01008. In addition, the “Normalized (0 to 100%), YF mutant, Average” value is 0.905% in the test on CgBdf1 BD2 [1] (CgBdf1 BD2 YF mutant) and 0.447% in the test on CgBdf1 BD1 [3] (CgBdf1 BD1 YF mutant). In addition, the “Raw data, YF mutant, Left” value is given as 0.01503 in the test with CgBdf1 BD2 [1] (setting [6]) and 0.005861 with CgBdf1 BD1 [3] (setting [8]). Further, the figures for the “Raw data, YF mutant, Right” value with CgBdf1 BD2 [1] (setting [6]) and in the test on CgBdf1 BD1 [3] (setting [8]) were 0.003067 and 0.003085, respectively. For the same molecule, the IC50 on CgBdf1 BD2 [2] was more than 20 µM; on CgBdf1 BD1 [4] it was 12 µM.
On to `COCCN1C(=O)c2ccccc2C(C(=O)Nc2cccc(NC(C)=O)c2)C12CCCCC2` (stereo not shown), for which the entries for the “Normalized (0 to 100%), WT, Average” value with CgBdf1 BD2 [1] (CgBdf1 BD2 WT) and in the test on CgBdf1 BD1 [3] (CgBdf1 BD1 WT) were 0.639% and 1.5%, respectively. The “Raw data, WT, Left” value in the test with CgBdf1 BD2 [1] (setting [5]) came to 0.006862; in the test on CgBdf1 BD1 [3] (setting [7]) it was 0.004411. Besides, the entries for the “Raw data, WT, Rigt” value in the test on CgBdf1 BD2 [1] (setting [5]) and in the test on CgBdf1 BD1 [3] (setting [7]) were 0.005926 and 0.02552, respectively. The “Normalized (0 to 100%), YF mutant, Average” value in the test with CgBdf1 BD2 [1] (CgBdf1 BD2 YF mutant) is reported as 0.798%; with CgBdf1 BD1 [3] (CgBdf1 BD1 YF mutant), 0.416%. In addition, the “Raw data, YF mutant, Left” value was found to be 0.01319 in the test with CgBdf1 BD2 [1] (setting [6]) and 0.005552 in the test with CgBdf1 BD1 [3] (setting [8]). For the same molecule, the “Raw data, YF mutant, Right” value with CgBdf1 BD2 [1] (setting [6]) stood at 0.002761; in the test on CgBdf1 BD1 [3] (setting [8]) it was 0.002776. Further, the IC50 at CgBdf1 BD2 [2] is more than 20 µM; on CgBdf1 BD1 [4] it was 19 µM.

As usually defined, the IC50 is the concentration that inhibits the measured activity by half.
